Anti-infective test results gathered from many reports (values: NIAID ChemDB through PubChem).

Shared fields: tests in culture; agent: Candida albicans; read-out: MIC

Blank or dashed fields: not listed here.

compound | strain | method | conditions | result
O[C@](Cn1cncn1)(Cn1cnc(/C=C/c2ccc(OCC(F)(F)C(F)F)cc2)n1)c1ccc(F)cc1F | Isolate 04-31 | - | - | 0.25 µg/mL
CCCCCCCCOc1ccc(N2CCN(c3ccc(C(=O)N[C@H]4CCCNC(=O)C5C[C@H](N)CN5C(=O)C(C(C)O)NC(=O)C(CCc5ccc(O)cc5)NC(=O)C5C[C@@H](O)CN5C(=O)C(C(C)O)NC4=O)cc3)CC2)cc1 | ATCC CCH442 | - | - | 0.2 µg/mL
O/N=C(\c1ccccc1)c1oc2ccc(Cl)cc2c1Cn1cncn1 | NRRL Y-27077 | - | - | 25 µg/mL
C[C@@H](n1cnc2cc(N3CCN(c4ccc(Cl)cc4)CC3)ccc2c1=O)[C@](O)(Cn1cncn1)c1ccc(F)cc1F | 76 strains | - | - | ≤0.03 µg/mL
CNc1ccc(C(=O)CC(O)CCC(C)C2OC(=O)CC(O)CC(=O)CC(O)CC(O)CC(O)CC(O)CC3(O)CC(O)C(C(=O)NCCN(C)C)C(CC(O[C@@H]4O[C@H](C)[C@@H](O)[C@H](NC(=O)CN5CCN(CCO)CC5)[C@@H]4O)/C=C/C=C/C=C/C=C\C=C/C=C/C=C/C2C)O3)cc1 | 73 | - | - | 0.12 µg/mL
C[C@@H](c1ncncc1F)[C@](O)(Cn1cncn1)c1ccc(F)cc1F | 15 isolates | broth dilution | pH 7 | 0.03 µg/mL
CCCCCOc1ccc(-c2ccc(-c3ccc(C(=O)N[C@H]4CCCNC(=O)C5[C@@H](O)CN5C(=O)C(C(C)O)NC(=O)C(CCc5ccc(O)cc5)NC(=O)C5C[C@@H](O)CN5C(=O)C(C(C)O)NC4=O)cc3)cc2)cc1 | ATCC 10231 | - | - | 0.39 µg/mL
CCC(C)CC(C)CCCCCCCCC(=O)N[C@H]1C[C@@H](O)[C@H](NCCN)NC(=O)[C@@H]2[C@@H](O)CCN2C(=O)[C@H]([C@H](O)CCN)NC(=O)[C@H]([C@H](O)[C@@H](O)c2ccc(O)cc2)NC(=O)[C@@H]2C[C@@H](O)CN2C(=O)[C@H]([C@@H](C)O)NC1=O | CLY16996 | broth dilution | - | >16 µg/mL
COC(=O)[C@H]1[C@@H]2C[C@@H](O[C@@H]3O[C@H](C)[C@@H](O)[C@H](N)[C@@H]3O)/C=C/C=C/C=C/C=C/C=C/C=C/C=C/[C@H](C)[C@@H](O)[C@H](C)[C@H](C)OC(=O)C[C@H](O)C[C@H](O)[C@@H](O)CC[C@H](O)C[C@H](O)C[C@](O)(C[C@@H]1O)O2 | 15 isolates | broth dilution | pH 5 | 4 µg/mL
CNc1ccc(C(=O)CC(O)CCC(C)C2OC(=O)CC(O)CC(=O)CC(O)CC(O)CC(O)CC(O)CC3(O)CC(O)C(C(=O)N4CCN(C)CC4)C(CC(O[C@@H]4O[C@H](C)[C@@H](O)[C@H](NC(=O)CN5CCN(CCO)CC5)[C@@H]4O)/C=C/C=C/C=C/C=C\C=C/C=C/C=C/C2C)O3)cc1 | 200 | - | - | 0.03 µg/mL
CCCCCOc1ccc(-c2ccc(-c3ccc(C(=O)N[C@H]4CCCNC(=O)C5C[C@H](NC(=O)C[N+](C)(C)C)CN5C(=O)C(C(C)O)NC(=O)C(CCc5ccc(O)cc5)NC(=O)C5C[C@@H](O)CN5C(=O)C(C(C)O)NC4=O)cc3)cc2)cc1 | ATCC 10231 | - | - | 1.56 µg/mL
C[C@@H](n1cnc2cc(Cl)ccc2c1=O)[C@](O)(Cn1cncn1)c1ccc(F)cc1F | 406 strains | - | - | ≤0.03 µg/mL
Cc1ccc(C(Cn2ccnc2)OC/C=C/c2ccccc2)cc1 | CDCB385 | - | - | 128 µg/mL
NC(=NC1CCCC1)c1ccc(-c2ccc(-c3ccc(C(N)=NC4CCCC4)cc3)o2)cc1 | Isolate 2281 | - | - | 12.5 µg/mL
Clc1ccc(C(Cn2ccnc2)OCc2cccc3ccccc23)cc1 | CDCB385 | - | - | 128 µg/mL
O=C(Nc1nc2ccc(NC(=O)[C@@H]3CCC[C@H](NCc4ccc5ccccc5c4)C3)cc2s1)C1CCCC1 | IFM 47598 (Darlington) | - | - | 3.13 µM
CCCCCCCCCCCCCCCC(=O)N[C@H]1CCCNC(=O)C2C[C@H](N)CN2C(=O)C(C(C)O)NC(=O)C(CCc2ccc(O)cc2)NC(=O)C2C[C@@H](O)CN2C(=O)C(C(C)O)NC1=O | ATCC 62376 | - | - | 0.78 µg/mL
CNc1ccc(C(=O)CC(O)CCC(C)C2OC(=O)CC(O)CC(=O)CC(O)CC(O)CC(O)CC(O)CC3(O)CC(O)C(C(=O)N4CCN(C)CC4)C(CC(O[C@@H]4O[C@H](C)[C@@H](O)[C@H](NC(=O)CN5CCN(C)CC5)[C@@H]4O)/C=C/C=C/C=C/C=C\C=C/C=C/C=C/C2C)O3)cc1 | 73 | - | - | 0.015 µg/mL
Cc1ccc(C(Cn2ccnc2)OCc2cccc3ccccc23)cc1 | CA7 | - | - | >128 µg/mL
Cc1c(/C(=N/O)c2ccc(Cl)cc2)oc2ccc(Cl)cc12 | NRRL Y-27077 | - | - | 5 µg/mL
Cc1c(S(=O)(=O)c2ccccc2)[n+](=O)c2ccccc2n1[O-] | Clinical isolate 9 | - | - | 31.25 µg/mL
Clc1ccc(C(Cn2ccnc2)OC/C=C/c2ccccc2)cc1 | CA12 | - | - | >128 µg/mL
COc1cc(O)c2c(c1)C(=O)c1c(cc3c(c1O)-c1c(cc(C)c(C(=O)NC(CO)C(=O)O)c1O)[C@H](OC1OC(C)C(N(C)C)C(OC4OCC(O)C(O)C4O)C1O)[C@H]3O)C2=O | ATCC 38247 (amphotericin B-resistant) | - | - | 0.8 µg/mL
O=C1/C(=C/c2ccccc2)CCc2ccccc21 | - | - | - | 50 µg/mL
C[C@@H](N1CNc2cc(Cl)ccc2C1=O)[C@](O)(Cn1cncn1)c1ccc(F)cc1F | 76 strains | - | - | 0.15 µg/mL
CCOc1cc2c(cc1F)n([O-])c(C)c(Cl)[n+]2=O | Clinical isolate 22 | - | - | 31.25 µg/mL
Clc1ccc(-c2cn(CC3CC3)cc2C(c2ccccc2)n2ccnc2)cc1 | - | - | - | 0.025 µg/mL
CCC(C)n1ncn(-c2ccc(N3CCN(c4ccc(OC[C@H]5CO[C@](Cn6cncn6)(c6ccc(Cl)cc6Cl)O5)cc4)CC3)cc2)c1=O | FR2 | - | - | 0.004 µg/mL
CC[C@@H]([C@H](C)O)n1ncn(-c2ccc(N3CCN(c4ccc(OC[C@@H]5CO[C@@](Cn6cncn6)(c6ccc(F)cc6F)C5)cc4)CC3)cc2)c1=O | 10 isolates | broth dilution | pH 4 | 0.03 µg/mL
C[C@@H](n1cnc2cccc(F)c2c1=O)[C@](O)(Cn1cncn1)c1ccc(F)cc1F | 60 strains | - | - | 0.63 µg/mL
Clc1ccc(C(Cn2ccnc2)OCc2cccc3ccccc23)c(Cl)c1 | 3M | - | - | 8 µg/mL
CC(C)S(=O)(=O)N1CCN(c2cnn(-c3cc(F)cc(F)c3)c(=O)c2OC2CCC(F)C2)CC1 | C375 | broth dilution | - | 0.25 µg/mL
C[C@@H](n1cnc2cc(Sc3ccccc3)ccc2c1=O)[C@](O)(Cn1cncn1)c1ccc(F)cc1F | 406 strains | - | - | ≤0.03 µg/mL
Cc1c(O)cccc1C(=O)N[C@@H](CSc1ccccc1)[C@H](O)CN1C[C@H]2CCCC[C@H]2C[C@H]1C(=O)NC(C)(C)C | I59C | - | - | 64 µg/mL
c1ccc(C(c2ccn(-c3ccccc3)c2)n2ccnc2)cc1 | - | - | - | 2.3 µg/mL
CC(C)(C)c1ccc(COC(Cn2ccnc2)c2ccc(Cl)cc2Cl)cc1 | CA6 | - | - | 64 µg/mL
COc1ccc(C(Cc2ccc(F)cc2)n2ccnc2)cc1 | - | - | - | 23 µg/mL
CNc1ccc(C(=O)CC(O)CCC(C)C2OC(=O)CC(O)CC(=O)CC(O)CC(O)CC(O)CC(O)CC3(O)CC(O)C(C(=O)N4CCN(CCO)CC4)C(CC(O[C@@H]4O[C@H](C)[C@@H](O)[C@H](NC(=O)CN5CCN(C)CC5)[C@@H]4O)/C=C/C=C/C=C/C=C\C=C/C=C/C=C/C2C)O3)cc1 | 200 | - | - | 0.06 µg/mL
CCCCCOc1ccc(-c2ccc(-c3ccc(C(=O)N[C@H]4CCCNC(=O)C5[C@H](N)CN5C(=O)C(C(C)O)NC(=O)C(CCc5ccc(O)cc5)NC(=O)C5C[C@@H](O)CN5C(=O)C(C(C)O)NC4=O)cc3)cc2)cc1 | ATCC CCH442 | - | - | 0.39 µg/mL
Cc1ccc2ncn([C@H](C)[C@](O)(Cn3cncn3)c3ccc(F)cc3F)c(=O)c2c1 | 60 strains | - | - | 0.07 µg/mL
Cc1ccc2oc(C(=O)c3ccc(Cl)cc3)c(C)c2c1 | NRRL Y-27077 | - | - | 50 µg/mL
C[C@H]1[C@H](O)[C@@H](C)/C=C/C=C/C=C/C=C/C=C/C=C/C=C/[C@H](O[C@@H]2O[C@H](C)[C@@H](O)[C@H](N)[C@@H]2O)C[C@@H]2O[C@](O)(C[C@@H](O)C[C@@H](O)CC[C@H](O)[C@@H](O)C[C@@H](O)CC(=O)O[C@H]1C)C[C@H](O)[C@H]2C(=O)O | ATCC64552 | - | - | 2 µg/mL
Cc1c(Cl)[n+](=O)c2cc(Cl)ccc2n1[O-] | Clinical isolate 24 | - | - | 15.6 µg/mL
Clc1ccc(COC(Cn2ccnc2)c2ccc(Cl)cc2Cl)c(Cl)c1 | 10 isolates | broth dilution | pH 6 | 0.5 µg/mL
COc1ccc(/C=C2\CCc3ccccc3C2=O)cc1OC | - | - | - | 25 µg/mL
CCOc1cc2c(cc1F)n([O-])c(C)c(S(=O)(=O)c1ccccc1)[n+]2=O | Clinical isolate 15 | - | - | 15.6 µg/mL
Clc1ccc(C(Cn2ccnc2)OC/C=C/c2ccccc2)c(Cl)c1 | 5M | - | - | 4 µg/mL
COc1ccc(/C=C2\COc3ccc(-c4ccccc4)cc3C2=O)cc1OC | - | - | - | 50 µg/mL
O=C(c1ccc(Cl)cc1)c1oc2ccc(Cl)cc2c1Cn1ccnc1 | NRRL Y-27077 | - | - | 25 µg/mL
CC(/C=C/C=C(\C)C(O)C(C)C(=O)O[C@H]1C[C@@H](C)C=C2C=C[C@@](C)(O)[C@](C)(C(=O)CCO)[C@H]21)=C\C=C\C(=O)O | CCH442 | - | - | 50 µg/mL
CCCCCCCCOc1ccc(N2CCN(c3ccc(C(=O)N[C@H]4CCCNC(=O)C5C[C@H](N)CN5C(=O)C(C(C)O)NC(=O)C(Cc5ccc(N)cc5)NC(=O)C5CCCN5C(=O)C(C(C)O)NC4=O)cc3)CC2)cc1 | ATCC 10231 | - | - | 0.39 µg/mL
CCn1cc(-c2ccc(Cl)c(Cl)c2)c(C(c2ccc(C)cc2)n2ccnc2)c1 | - | - | - | 0.47 µg/mL
COc1ccc(/C=C2\COc3ccccc3C2=O)cc1 | - | - | - | 50 µg/mL

Again, the opening 4 rows:

compound,strain,method,conditions,result
O[C@](Cn1cncn1)(Cn1cnc(/C=C/c2ccc(OCC(F)(F)C(F)F)cc2)n1)c1ccc(F)cc1F,Isolate 04-31,-,-,0.25 µg/mL
CCCCCCCCOc1ccc(N2CCN(c3ccc(C(=O)N[C@H]4CCCNC(=O)C5C[C@H](N)CN5C(=O)C(C(C)O)NC(=O)C(CCc5ccc(O)cc5)NC(=O)C5C[C@@H](O)CN5C(=O)C(C(C)O)NC4=O)cc3)CC2)cc1,ATCC CCH442,-,-,0.2 µg/mL
O/N=C(\c1ccccc1)c1oc2ccc(Cl)cc2c1Cn1cncn1,NRRL Y-27077,-,-,25 µg/mL
C[C@@H](n1cnc2cc(N3CCN(c4ccc(Cl)cc4)CC3)ccc2c1=O)[C@](O)(Cn1cncn1)c1ccc(F)cc1F,76 strains,-,-,≤0.03 µg/mL

Rows are shuffled and stem from different studies.